Results taken from article PMC6118392, “VapC proteins from Mycobacterium tuberculosis share ribonuclease sequence specificity but differ in regulation and toxicity” (PLoS ONE, 2018).

Biological target: the molecule itself
Experiment: SEC

B1: VapBC27 heterodimer (complex)
chain 1: [about 80 residues not given here]
chain 2: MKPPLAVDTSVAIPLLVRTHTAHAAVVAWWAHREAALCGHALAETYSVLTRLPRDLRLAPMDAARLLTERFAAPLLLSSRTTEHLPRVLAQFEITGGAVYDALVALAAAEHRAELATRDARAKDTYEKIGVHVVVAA
notes: VapB27 antitoxin of Mycobacterium tuberculosis, gene Rv0599c; as m5; VapC27 toxin of Mycobacterium tuberculosis, gene Rv0598c; as m6; also called Rv0599c/Rv0598c
stoichiometry N: 2.55 VapBC heterodimers per complex
